# According to patent US20070048329A1, “Epstein barr virus peptide epitopes, polyepitopes and delivery system therefor” (priority 2002, published 2007):
# Entries after “also recorded” stand apart in the source; their conditions may differ.
# Test system: peptide-sensitised PHA blasts and LCLs
# Test: 51Cr-release cytotoxicity assay with peptide-specific CTL lines and clones
# Assay type: cell-based, human
# Conditions: CTL lines/clones against autologous and allogeneic targets sharing HLA alleles
# Procedure: Polyclonal CTL lines and LMP1-specific CTL clones were established according to previously published methods (Moss 1988; Khanna 1998). Briefly, 2×10^6 PBMCs were stimulated with 1×10^6 autologous lymphocytes (responder to stimulator ratio of 2:1) pulsed with 10 μM peptide for 1 hr in 2 ml in a 24-well plate. After 3 days, culture medium with IL-2 (10 U/ml) was added and the cells were further expanded. These lymphocytes were restimulated on day 7 with γ-irradiated (8000 rad) autologous LCLs. After 10 days in culture medium, the cells were used as polyclonal effectors in a standard ^51Cr-release assay against peptide-sensitised autologous PHA blasts.
# To generate peripheral blood CTL clones specific for the LMP1 derived peptides, PBMCs of healthy donors were reactivated (2×10^6) PBMCs with peptide-sensitised (10 ug of peptide/ml) autologous lymphocytes (1×10^6) in 2 ml wells of a 24-well plate in culture medium. After 3 days, the cells were seeded onto 0.35% agarose and maintained in T cell growth medium containing rIL2 (50 IU/ml). After another 3 days, growing clones were transferred to 96-well round-bottom tissue culture plates (Life Technologies) and cultured in T cell growth medium containing rIL2 (50-100 IU/ml).
# Target cells were pre-sensitized with synthetic peptide epitopes and then incubated with ^51Cr for 90 min. Following incubation, these cells were washed in growth medium and used as targets in a standard 5 h ^51Cr-release assay (Moss, 1988)
# To further characterize the minimal T cell epitopes defined by ELISPOT assays we generated polyclonal and clonal CTL lines specific for these epitopes. PBMCs from the healthy seropositive donors were stimulated with synthetic peptide epitopes and the CTL clones or polyclonal lines were established and tested in standard ^51Cr-release assays. The […] peptide-specific CTL clones were generated using initial stimulation with peptide-sensitized autologous PBMC followed by continuous restimulation with irradiated autologous LCL. These CTL clones were screened for […]-specific CTL activity by ^51Cr release assays against peptide-sensitised autologous and allogeneic PHA blast and LCLs. […] Titration of this minimal epitope on autologous PHA blasts further confirmed the fine specificity of this CTL clone (FIG. 5B).
row,Sequence,HLA Restriction
1,ALLVLYSFAL,HLA A2
2,ALLVLYSFA,HLA A2
3,VLYSFALML,HLA A2
4,IALYLQQNW,HLA B57 and HLA B58; also recorded: HLA B571B58

# Test system: peptide-sensitised PHA blasts and LCLs
# Test: not given
# Conditions: reference Khanna et. al. or Leen et. al.; cited from earlier work
row,Sequence,HLA Restriction
1,ESDSNSNEG [reference compound],HLA DQ2
2,YLLEMLWRL [reference compound],HLA A2
3,YLQQNWWTL [reference compound],HLA A2
